Patent US11279728B2, “Broad spectrum viral inhibitor” (Albert Einstein College of Medicine, priority 2017, dated 2022)

Tested on: HEK293T cells
Test: Intracellular ddhCTP in HEK293T cells transfected with Hs viperin / Hs CMPK2 (LC/MS)

## Nc1ccn([C@@H]2OC(COP(=O)(O)OP(=O)(O)OP(=O)(O)O)=C[C@@H]2O)c(=O)n1 (stereo in doubt) [ddhCTP, 3′-deoxy-3′,4′-didehydro-cytidine triphosphate]
HEK293T cotransfected with viperin and CMPK2 plasmids, 48 h
  intracellular ddhCTP level: ~330 µM
HEK293T transfected with Hs viperin plasmid, 16-h post transfection
  intracellular ddhCTP level: ~75 µM
HEK293T transfected with Hs viperin plasmid, after 72 h
  intracellular ddhCTP level: ~35 µM
